Results as given in patent US9682130B2 (priority 2015, dated 2017).

Experiments:
[1] = tested on: Human Adenovirus 8 (Ad8 strain 13306); experiment: CPE reduction assay, Adenovirus 8; format: cell-based; details: CC50 divided by EC50
Method: (§1) To assess in vitro cytotoxicity, both a cytopathic effects of a virus (CPE) regression assay and a neutral red lysosomal uptake cell viability assay was performed essentially as described in, e.g., Repetto, et al., Neutral Red Uptake Assay for the Estimation of Cell Viability/Cytotoxicity, Nat. Protoc. 3: 1125-1131 (2008), the content of which is hereby incorporated by reference in its entirety. Ninety-six-well plates were seeded with MA-104 cells at 1×10^5 cells/mL and incubated overnight at 37° C. with 5% CO2. […] Each dilution was added to 5 wells of a 96-well plate with 80% to 100% confluent cells, and three wells of each dilution were then infected with one of the two test viruses. Two wells remained uninfected as controls for toxicity. Six wells per plate were set aside as uninfected, untreated cell controls, and six wells per plate were infected with no treatment as virus controls. […] Assay plates were incubated at 37° C. with 5% CO2. […] After CPE reduction assay was completed, a neutral red lysosomal uptake assay was conducted by filling each well with 0.011% (m/v) neutral red, a vital stain. The plates then were incubated for about 2 hours at 37° C. in the dark. […] The plates were then read on a spectrophotometer at 540 nm to quantify the neutral red taken up by the healthy cells. […]

[2] = tested on: Human Adenovirus 5 (AD5 strain NYS #98-1836); format: cell-based; details: CC50 divided by EC50
Method: as §1

## Nc1ccn([C@H]2CC[C@@H](CO)O2)c(=O)n1 [ddC, 2′, 3′-Dideoxycytidine]
[1]
  CPE Reduction Assay SI: > 2400 and <2400
[2]
  CPE Reduction Assay SI: > 2400 and <2400

Several values for one entry are separate records, joined by “and”; a condition that tells them apart may be missing. Equal entries are not always repeated.
